{
  "source": "ChEMBL document CHEMBL1128040",
  "about": "“Acyl CoA:cholesterol acyltransferase (ACAT) inhibitors: heterocyclic bioisosteres for the urea group in DuP 128” (Bioorg Med Chem Lett, 1995)",
  "molecular_target": "T1, Sterol O-acyltransferase 1 (Rattus norvegicus, UniProt O70536)",
  "T1 sequence (O70536 whole entry)": "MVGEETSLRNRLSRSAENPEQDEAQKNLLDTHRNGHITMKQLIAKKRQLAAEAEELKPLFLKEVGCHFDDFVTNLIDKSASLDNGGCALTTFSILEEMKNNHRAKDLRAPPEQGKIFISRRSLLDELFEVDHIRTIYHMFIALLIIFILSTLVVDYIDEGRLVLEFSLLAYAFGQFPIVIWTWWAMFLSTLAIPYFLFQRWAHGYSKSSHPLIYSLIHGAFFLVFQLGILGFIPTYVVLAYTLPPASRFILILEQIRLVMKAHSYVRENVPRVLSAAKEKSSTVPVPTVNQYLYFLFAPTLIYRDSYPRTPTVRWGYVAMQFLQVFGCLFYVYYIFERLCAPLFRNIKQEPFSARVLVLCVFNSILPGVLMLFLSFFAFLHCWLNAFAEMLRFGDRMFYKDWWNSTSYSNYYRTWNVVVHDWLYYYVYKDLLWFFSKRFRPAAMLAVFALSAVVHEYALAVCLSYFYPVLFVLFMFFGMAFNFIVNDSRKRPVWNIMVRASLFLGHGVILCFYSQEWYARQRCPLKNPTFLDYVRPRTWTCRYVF",
  "experiment": "In vitro inhibition of Acyl coenzyme A:cholesterol acyltransferase in rat hepatic microsomes was measured by using AIV assay",
  "set-up": "species or system Liver",
  "data": [
    {"smiles": "Cc1cc(C)n(CCCCCSc2nc(-c3ccccc3)c(-c3ccccc3)[nH]2)n1", "values": [
      {"measurement": "IC50", "value": 30, "unit": "nM"}
    ]}
  ]
}
